Compound potency records, mixed from different reports. Data source: NIAID ChemDB in PubChem.

All rows: whole-cell or culture tests; species: Candida albicans

MIC50, MIC90 and the like: level of inhibition, or share of isolates inhibited. ECn: concentration that inhibits the pathogen or its effect by n%. Neighbouring rows are from separate reports. Blank or dashed fields: not listed here.

SMILES | read by | read-out | setting | strain or isolate | value
CCCCCCCCOc1ccc(-c2ccc(-c3ccc(CN[C@H]4CCCNC(=O)C5C[C@H](N)CN5C(=O)C(C(C)O)NC(=O)C(CCc5ccc(O)cc5)NC(=O)C5C[C@@H](O)CN5C(=O)C(C(C)O)NC4=O)cc3)cc2)cc1 |  | MIC |  | ATCC CCH442 | 0.39 µg/mL
CCC(C)n1ncn(-c2ccc(N3CCN(c4ccc(OC[C@H]5CO[C@](Cn6cncn6)(c6ccc(Cl)cc6Cl)O5)cc4)CC3)cc2)c1=O |  | MIC |  | 60 strains | 0.07 µg/mL
C=CCc1ccc(O)c(OC)c1 | turbidity | MIC90 |  | 2781 | 485 µg/mL
CCCCCOc1ccc(-c2ccc(-c3ccc(C(=O)N[C@H]4CCCNC(=O)C5[C@H](N)CN5C(=O)C(C(C)O)NC(=O)C(CCc5ccc(O)cc5)NC(=O)C5C[C@@H](O)CN5C(=O)C(C(C)O)NC4=O)cc3)cc2)cc1 |  | MIC |  | ATCC 10231 | 0.78 µg/mL
C[C@H]1[C@H](O)[C@@H](C)/C=C/C=C/C=C/C=C/C=C/C=C/C=C/[C@H](O[C@@H]2O[C@H](C)[C@@H](O)[C@H](N)[C@@H]2O)C[C@@H]2O[C@](O)(C[C@@H](O)C[C@@H](O)CC[C@H](O)[C@@H](O)C[C@@H](O)CC(=O)O[C@H]1C)C[C@H](O)[C@H]2C(=O)O |  | MIC |  | KB 83/005 (azole-resistant) | 0.13 µg/mL
CCCCCCCCOc1ccc(N2CCN(c3ccc(C(=O)N[C@H]4CCCNC(=O)C5C[C@H](N)CN5C(=O)C(C(C)O)NC(=O)C(CCc5ccc(O)cc5)NC(=O)C5C[C@@H](O)CN5C(=O)C(C(C)O)NC4=O)cc3)CC2)cc1 |  | MIC |  | ATCC CCH442 | 0.2 µg/mL
Clc1ccc(COc2ccc(C(c3ccc4ccccc4c3)n3ccnc3)cc2)cc1.O=[N+]([O-])O |  | MIC90 |  | 17 strains | ≥256 µg/mL
Cc1c(S(=O)(=O)c2ccccc2)[n+](=O)c2ccccc2n1[O-] |  | MIC |  | Clinical isolate 7 | 15.6 µg/mL
CCCCCOc1ccc(-c2ccc(-c3ccc(C(=O)N[C@H]4CCCNC(=O)C5C[C@H](NC(=O)NC)CN5C(=O)C(C(C)O)NC(=O)C(CCc5ccc(O)cc5)NC(=O)C5C[C@@H](O)CN5C(=O)C(C(C)O)NC4=O)cc3)cc2)cc1 |  | MIC |  | ATCC CCH442 | 0.2 µg/mL
CC(O)Cc1ccc(Cn2cc(CN3CCN([C@H](C)[C@](O)(Cn4cncn4)c4ccc(F)cc4F)CC3)c3ccccc32)cc1 | resazurin | MIC80 |  | ATCC 64548 | 8 µg/mL
Clc1cccc(Cl)c1COc1ccc(C(c2ccc(-c3ccccc3)cc2)n2ccnc2)cc1.O=[N+]([O-])O |  | Mean MIC |  | 17 strains | ≥256 µg/mL
C[C@@H](NC(=O)c1ccc(Cl)cc1N)[C@](O)(Cn1cncn1)c1ccc(F)cc1F |  | MIC |  | 406 strains | 0.07 µg/mL
CCC(C)n1ncn(-c2ccc(N3CCN(c4ccc(OC[C@H]5CO[C@](Cn6cncn6)(c6ccc(Cl)cc6Cl)O5)cc4)CC3)cc2)c1=O | broth dilution | MIC | pH 7 | 10 isolates | 0.03 µg/mL
O=[N+]([O-])O.c1ccc(-c2ccc(C(c3nccc4ccccc34)n3ccnc3)cc2)cc1 |  | Mean MIC |  | 44 strains | 110.8 µg/mL
CSc1ccc2c(=O)n([C@H](C)[C@](O)(Cn3cncn3)c3ccc(F)cc3F)cnc2c1 |  | MIC |  | 60 strains | ≤0.03 µg/mL
C[C@@H](c1ncncc1F)[C@](O)(Cn1cncn1)c1ccc(F)cc1F | broth dilution | MIC | pH 7 | 15 isolates | 0.03 µg/mL
C[C@@H](N1CCN(Cc2cn(Cc3ccc(Cl)cc3Cl)c3ccccc23)CC1)[C@](O)(Cn1cncn1)c1ccc(F)cc1F | resazurin | MIC80 |  | ATCC 64548 | 0.25 µg/mL
COc1cc2ncn([C@H](C)[C@](O)(Cn3cncn3)c3ccc(F)cc3F)c(=O)c2cc1OC |  | MIC |  | 406 strains | 0.63 µg/mL
Cc1c(Cl)[n+](=O)c2cc(Cl)ccc2n1[O-] |  | MIC |  | Clinical isolate 17 | 31.25 µg/mL
CC(C)N=C(N)c1ccc2nc(-c3ccc4c(c3)Cc3cc(-c5nc6ccc(C(N)=NC(C)C)cc6[nH]5)ccc3-4)[nH]c2c1 |  | MFC |  | A39 | 1.56 µg/mL
COC(=O)[C@H]1[C@@H]2C[C@@H](O[C@@H]3O[C@H](C)[C@@H](O)[C@H](N)[C@@H]3O)/C=C/C=C/C=C/C=C/C=C/C=C/C=C/[C@H](C)[C@@H](O)[C@H](C)[C@H](C)OC(=O)C[C@H](O)C[C@H](O)[C@@H](O)CC[C@H](O)C[C@H](O)C[C@](O)(C[C@@H]1O)O2 | broth dilution | EC90 | pH 4 | 15 isolates | 8 µg/mL
C[C@@H](N1CCN(Cc2cn(Cc3ccc(F)cc3F)c3ccccc23)CC1)[C@](O)(Cn1cncn1)c1ccc(F)cc1F | resazurin | MIC80 |  | ATCC 64548 | 0.25 µg/mL
CCCCCOc1ccc(-c2ccc(-c3ccc(C(=O)N[C@H]4CCCNC(=O)C5C[C@H](NCC(N)CO)CN5C(=O)C(C(C)O)NC(=O)C(CCc5ccc(O)cc5)NC(=O)C5C[C@@H](O)CN5C(=O)C(C(C)O)NC4=O)cc3)cc2)cc1 |  | MIC |  | ATCC 62376 | 0.39 µg/mL
Cc1cc(Br)c2ncn([C@H](C)[C@](O)(Cn3cncn3)c3ccc(F)cc3F)c(=O)c2c1 |  | MIC |  | 60 strains | 0.07 µg/mL
Fc1ccc(COc2ccc(C(c3nccc4ccccc34)n3ccnc3)cc2)c(F)c1 |  | Mean MIC |  | 16 strains | ≥256 µg/mL
C[C@@H](c1nc(-c2ccc(C#N)cc2)cs1)[C@](O)(Cn1cnnc1)c1ccc(F)cc1F |  | MFC99 |  | A28200 | >16 µg/mL
C[C@H](n1cnc2cc(Cl)ccc2c1=O)[C@](O)(Cn1cncn1)c1ccc(F)cc1F |  | MIC |  | 60 strains | 1.25 µg/mL
CCOc1cc2c(cc1F)n([O-])c(C)c(S(=O)(=O)c1ccccc1)[n+]2=O |  | MIC |  | Clinical isolate 14 | 31.25 µg/mL
C[C@@H](N1CCN(Cc2cn(Cc3ccc(Cl)cc3Cl)c3c(F)cccc23)CC1)[C@](O)(Cn1cncn1)c1ccc(F)cc1F | resazurin | MIC80 |  | ATCC 64548 | 0.125 µg/mL
C[C@@H](n1cnc2cc(-[n+]3cnc[nH]3)ccc2c1=O)[C@](O)(Cn1cncn1)c1ccc(F)cc1F |  | MIC |  | 406 strains | 10 µg/mL
Clc1ccccc1C(c1ccccc1)(c1ccccc1)n1ccnc1 | broth dilution | EC90 | pH 7 | 10 isolates | 0.03 µg/mL
C[C@@H](n1cnc2cc(S(=O)(=O)c3ccccc3)ccc2c1=O)[C@](O)(Cn1cncn1)c1ccc(F)cc1F |  | MIC |  | 76 strains | 0.15 µg/mL
Clc1cccc(Cl)c1COc1ccc(C(c2ccc3ccccc3c2)n2ccnc2)cc1.O=[N+]([O-])O |  | MIC90 |  | 17 strains | ≥256 µg/mL
C[C@@H](n1cnc2cccc(F)c2c1=O)[C@](O)(Cn1cncn1)c1ccc(F)cc1F |  | MIC |  | 76 strains | 20 µg/mL
C=CCc1ccc(Cn2cc(CN3CCN([C@H](C)[C@](O)(Cn4cncn4)c4ccc(F)cc4F)CC3)c3ccccc32)cc1 | resazurin | MIC80 |  | ATCC 90028 | 2 µg/mL

The first 5 rows once more:

CCCCCCCCOc1ccc(-c2ccc(-c3ccc(CN[C@H]4CCCNC(=O)C5C[C@H](N)CN5C(=O)C(C(C)O)NC(=O)C(CCc5ccc(O)cc5)NC(=O)C5C[C@@H](O)CN5C(=O)C(C(C)O)NC4=O)cc3)cc2)cc1 ; read-out: MIC ; strain or isolate: ATCC CCH442 ; value: 0.39 µg/mL
CCC(C)n1ncn(-c2ccc(N3CCN(c4ccc(OC[C@H]5CO[C@](Cn6cncn6)(c6ccc(Cl)cc6Cl)O5)cc4)CC3)cc2)c1=O ; read-out: MIC ; strain or isolate: 60 strains ; value: 0.07 µg/mL
C=CCc1ccc(O)c(OC)c1 ; read by: turbidity ; read-out: MIC90 ; strain or isolate: 2781 ; value: 485 µg/mL
CCCCCOc1ccc(-c2ccc(-c3ccc(C(=O)N[C@H]4CCCNC(=O)C5[C@H](N)CN5C(=O)C(C(C)O)NC(=O)C(CCc5ccc(O)cc5)NC(=O)C5C[C@@H](O)CN5C(=O)C(C(C)O)NC4=O)cc3)cc2)cc1 ; read-out: MIC ; strain or isolate: ATCC 10231 ; value: 0.78 µg/mL
C[C@H]1[C@H](O)[C@@H](C)/C=C/C=C/C=C/C=C/C=C/C=C/C=C/[C@H](O[C@@H]2O[C@H](C)[C@@H](O)[C@H](N)[C@@H]2O)C[C@@H]2O[C@](O)(C[C@@H](O)C[C@@H](O)CC[C@H](O)[C@@H](O)C[C@@H](O)CC(=O)O[C@H]1C)C[C@H](O)[C@H]2C(=O)O ; read-out: MIC ; strain or isolate: KB 83/005 (azole-resistant) ; value: 0.13 µg/mL